The record followed here is patent US20240327339A1, “COMPOSITIONS AND METHODS FOR TREATING AND PREVENTING VIRAL INFECTIONS” (priority 2021, published 2024).

This assay relates to A/WSN/33. In words: Virus resistance test, A/WSN/33 infected A549 cells. Conditions: A549 cells treated 72 h, then passaged; repeated twice.

For `CCCN(CCC)S(=O)(=O)c1ccc(C(=O)O)cc1` [Probenecid, 4-[(dipropylamino)sulfonyl] benzoic acid], the “virus replication after passage of treated virus (resistance)” value is “No detectable virus replication was identified”.
